Results on 30 compounds are retold here after PubChem BioAssay AID1251 (SRMLSC, 2008).

Broadly, the inhibition is the drop in the measured response relative to a control, in per cent.

Only a part is listed here, and it is no random draw. Activity calls are given as the source filed them. Cut-off read from the data, not from the text of the source: active = inhibition above about 30%; inactive = the rest, inconclusive results apart.

This assay is described as follows: antivirals against arbovirus infection, primary screen, cell-based, full library, 10K replicate subset (AID 1251). The settings on record: arbovirus infection cell-based antiviral screen; at 10 µM; stronger effect = higher value.
Regarding `COc1ccccc1OP(C)(=O)Nc1cc(Cl)ccc1C` (stereo not given), the inhibition was inactive: -12.5%. For the compound `CC(C)NC(=O)NP(=O)(Oc1ccccc1)Oc1ccccc1`, the inhibition is inactive: 1.34%. For the compound `CCN(CC)C(=S)SC(NC=O)C(Cl)(Cl)Cl` (stereo not given), the inhibition was inactive: 4.1%.

`COc1ccc(OP(C)(=O)Nc2cccc(F)c2)cc1` (stereo not given): the inhibition was inactive: 6.82%.

In the case of `O=[N+]([O-])c1cc([N+](=O)[O-])c(-c2ccn[nH]2)s1`, the inhibition is inactive: -32.1%. With `Cc1cc(C)cc(OP(C)(N)=O)c1` (stereo not given), the inhibition was inactive: 8.34%.

For `CCOC(=O)c1ccc(NP(C)(=O)Oc2ccccc2)cc1` (stereo not given), the inhibition is inactive: 2.45%. On to `ClCCSc1nnc(-c2cccnc2)o1`, for which the inhibition is inactive: 1.89%. Turning to `COc1ccccc1OP(C)(=O)Nc1ccc(C)cc1` (stereo not given), the inhibition is inactive: 5.9%. Take `Cc1ccc(NP(C)(=O)Oc2ccccc2)c(C)c1` (stereo not given): the inhibition was inactive: 4.19%. On to `CC(C)(C)c1ccc(OP(C)(=O)Nc2ccc(SC(F)(F)F)cc2)cc1` (stereo not given), for which the inhibition is inactive: -26.1%. With `Cc1cccc(C)c1OP(C)(N)=O` (stereo not given), the inhibition was inactive: 7.1%. The figure for `O=[N+]([O-])c1ccc2c(c1)C=Nc1ccccc1O2` is inactive: 6.74%; for `Cc1ccc2nc3c(c(C)c2c1)CC(C(Cl)Cl)S3` (stereo not given) it is inactive: 6.99%. With `COc1ccc(N/C(=N/P(=O)(N2CCOCC2)N2CCOCC2)N2CCOCC2)cc1`, the inhibition is inactive: 13.5%. As to `COc1ccc2nc(NP(=O)(c3ccccc3)c3ccccc3)sc2c1`, the inhibition was inactive: 16.7%. For the compound `Cc1c2c(nc3ccccc13)SC(C(Cl)Cl)C2` (stereo not given), the inhibition was inactive: 13.2%. As for `O=C(OC1CN2CCC1CC2)C12CC3CC(CC(C3)C1)C2` (stereo not given), the inhibition is inactive: -4.09%. `Cc1cc(=O)[nH]c(N[N+](=O)[O-])n1`: the inhibition was inactive: 11.1%. For `CCN(CC)CCCOC(=O)C(O)(c1ccccc1)c1ccccc1`, the inhibition was inactive: 2.88%. On to `CCC(C)N(CC(C)C)C(=S)SC(NC(C)=O)C(Cl)(Cl)Cl` (stereo not given), for which the inhibition was inactive: -12.7%.

As for `CP(=O)(Nc1ccccn1)Oc1ccc(Cl)cc1` (stereo not given), the inhibition was inactive: 3.08%. With `CCOP(C)(=S)SCC(=O)NC(C)C(=O)O` (stereo not given), the inhibition is inactive: 5.16%.

Take `CCOC(=O)c1ccc(NP(C)(=O)Oc2ccc(OC)cc2)cc1` (stereo not given): the inhibition is inactive: -5.3%. With `O=C(COc1ccccc1)OC1CN2CCC1CC2` (stereo not given), the inhibition is inactive: 12.7%. For `CP(=O)(NC(=O)Nc1ccccc1)Oc1ccccc1` (stereo not given) the value was inactive: 8.49%; for `Cc1cc(C)cc(OP(C)(=O)Nc2ccc(SC(F)(F)F)cc2)c1` (stereo not given), inactive: 12.4%. For the compound `COP1(=S)c2c(C)nn(CCC#N)c2N=C(c2ccc(F)cc2)N1C` (stereo not given), the inhibition was inactive: 4.95%. Take `Cc1cccc(C)c1OP(C)(=O)Nc1ccc(SC(F)(F)F)cc1` (stereo not given): the inhibition is inactive: -11.4%. In the case of `CP(=O)(Oc1ccccc1)OC(c1ccccc1)C(F)(F)F` (stereo not given), the inhibition is inactive: 5.68%.
